Anti-infective test results gathered from many reports (values: NIAID ChemDB through PubChem).

Common to all: enzyme or target tests

Fold resistance has wild type as its base. Rows are shuffled and stem from different studies. Two numbers with a dash give a range or band. Percent inhibition refers to the dose given; in toxicity tests it is the harm to the cells. ICn: concentration for n% inhibition. An empty or dashed field is not shown.

SMILES	strain	measure	mutations	read by	protein	agent	dose	value
CC1(C)c2nc(C(=O)NCc3ccc(F)cc3)c(O)c(=O)n2CCN1Cc1cnccn1		IC50		ELISA	Integrase	HIV-1		<10 µM
Cc1cn([C@H]2CC[C@@H](COP(=O)(O)OP(=O)(O)OP(=O)(O)O)O2)c(=O)[nH]c1=O		IC50	RT-M41L T215Y	nucleotide incorporation / radiometric	Reverse transcriptase	HIV		0.13 µM
CC(C)=CCN1Cc2cccc3[nH]c(=S)n(c23)C[C@@H]1C		fold resistance	RT-Y271S	nucleotide incorporation	Reverse transcriptase	HIV		>200
CCOC(=O)C(=O)CC(=O)/C=C/c1cc(-c2ccccc2)cn1Cc1ccc(F)cc1		IC50	R448A	substrate cleavage / fluorescence	RNase H	HIV-1		100 µM
COC(=O)c1ccc(C(=O)NCc2cccc(C(F)(F)F)c2)c(O)c1O		IC50		strand transfer	Integrase	HIV		<0.5 µM
Nc1ncnc2c1ccn2[C@H]1C[C@H](F)[C@@H](COP(=O)(O)OP(=O)(O)OP(=O)(O)O)O1		fold resistance	RT-K65R	nucleotide incorporation / radiometric	Reverse transcriptase	HIV		5.36
COc1cccc(Cn2cccc2/C=C/C(=O)CC(=O)C(=O)O)c1		IC50	N474A	substrate cleavage / fluorescence	RNase H	HIV-1		100 µM
COC(=O)c1ccc(C(=O)NCc2ccccc2C(F)(F)F)c(O)c1O		IC50		strand transfer	Integrase	HIV		<0.5 µM
CN(C)C(=O)CN1CCn2c(nc(C(=O)NCc3ccc(F)cc3)c(O)c2=O)C1(C)C		IC50		ELISA	Integrase	HIV-1		<10 µM
CCOC(=O)/C=C\n1ncnc1-c1cc(Cl)ccc1N		IC50		luciferase	Rev:RRE	HIV-1		0.04 µM
CC(C)C(O)c1cn(Cc2ccc(Cl)c(Cl)c2)c(=O)c2c(O)c(=O)ccn12		IC50		ELISA	Integrase	HIV-1		<0.01 µM
NOCc1c(F)cccc1Cl		inhibition		ELISA	gp120	HIV-1	0.8 µg/mL	9.2%
CN1CCn2c(nc(C(=O)NCc3ccc(F)cc3)c(O)c2=O)C1(C)C		IC50		ELISA	Integrase	HIV-1		<10 µM
NC(=O)C[C@H](NC(=O)[C@@H](N)Cc1ccccc1)C(=O)N[C@@H](Cc1ccccc1)[C@@H](O)C(=O)NCC1CCCCC1		IC50			Protease	HIV-1		~1000 µM
Nc1nc2c(ncn2[C@H]2CC[C@@H](COP(=O)(O)OP(=O)(O)OP(=O)(O)OP(=O)(O)OC[C@@H]3CC[C@H](n4cnc5c(=O)[nH]c(N)nc54)O3)O2)c(=O)[nH]1		fold resistance	RT-D67N K70R T215Y K219Q	nucleotide incorporation / radiometric	Reverse transcriptase	HIV		0.325
CC[C@@H](C)[C@H](NC(=O)C1CCCN1C(=O)[C@@H](O)[C@H](Cc1ccccc1)NC(=O)[C@H](CC(C)C)NC(=O)CCc1ccccc1)C(=O)N[C@H](C(N)=O)C(C)C		IC50			Protease	HIV-1		<5 µM
COC(=O)c1ccc(C(=O)NCc2ccccn2)c(O)c1O		IC50		strand transfer	Integrase	HIV		<0.5 µM
COc1cc(/C=C/CO)cc(OC)c1O[C@@H]1O[C@H](CO)[C@@H](O)[C@H](O)[C@H]1O		IC50		FRET	RNase H	HIV-2		>20 µM
CC(C)(C)NC(=O)[C@@H]1CC2CCCCC2N1C(=O)[C@@H](O)[C@H](Cc1ccccc1)NC(=O)[C@H](CS(C)(=O)=O)NC(=O)COc1cccc2ccccc12		IC50			Protease	HIV-1		>0.05 µM
CCc1cc(NCc2nc3c(C)ccc(C)c3o2)c(=O)[nH]c1C		fold resistance	RT-Y181F	nucleotide incorporation	Reverse transcriptase	HIV-1		0.5
CC(C)(C)NC(=O)[C@@H]1C[C@@H](C2CCCCC2)CN1C(=O)[C@@H](O)[C@H](Cc1ccccc1)NC(=O)[C@H](CC(N)=O)NC(=O)OCc1ccccc1		inhibition			Protease	HIV-1	0.05 µM	0.5%
CCOC(=O)C(=O)CC(=O)/C=C/c1cccn1Cc1ccc(C)cc1C		IC50	R557A	substrate cleavage / fluorescence	RNase H	HIV-1		20 µM
Cn1nnc(CN2CCn3c(nc(C(=O)NCc4ccc(F)cc4)c(O)c3=O)C2(C)C)n1		IC50		ELISA	Integrase	HIV-1		<10 µM
Nc1nc2c(ncn2[C@H]2CC[C@@H](COP(=O)(O)OP(=O)(O)OP(=O)(O)O)O2)c(=O)[nH]1		Ki	RT-T215Y		Reverse transcriptase	HIV		0.04 µM
Cc1ccc(Cn2cccc2/C=C/C(=O)CC(=O)C(=O)O)c(C)c1		inhibition	Y501A	substrate cleavage / fluorescence	RNase H	HIV-1	100 µM	0%
CCNC(=O)c1cn2ccn(Cc3cccc(Cl)c3)c(=O)c2c(O)c1=O		IC50		ELISA	Integrase	HIV-1		<0.01 µM
O=C(/C=C/c1cccn1Cc1ccc(F)cc1)CC(=O)C(=O)O		IC50	N474A	substrate cleavage / fluorescence	RNase H	HIV-1		>100 µM
COc1ccc(CN2CCn3ccc(=O)c(O)c3C2=O)cc1Cl		IC50		ELISA	Integrase	HIV-1		0.01–0.1 µM
CC(C)=CCN1Cc2cccc3[nH]c(=S)n(c23)C[C@@H]1C		Ki		nucleotide incorporation	Reverse transcriptase	HIV		0.76 µM
CNC(=O)[C@@H](Cc1ccccc1)NP(=O)(O)OC[C@H]1O[C@@H](n2cc(C)c(=O)[nH]c2=O)C[C@@H]1N=[N+]=[N-]		Ki		fluorescence	Rev:RRE	HIV-1		0.0085 µM
CC(C)(C)OC(=O)N[C@@H](Cc1ccccc1)C(=O)N[C@@H](CO)C(=O)N[C@@H](Cc1ccccc1)[C@@H](O)C(=O)NCC1CCCCC1		IC50			Protease	HIV-1		<1000 µM
CCN(C(=O)C(=O)N(C)C)C1CN(C)CCn2c1nc(C(=O)NCc1ccc(F)c(C)c1)c(O)c2=O		IC50		ELISA	Integrase	HIV-1		<10 µM
COC1C[C@@H](C(=O)NC(C)(C)C)N(C(=O)[C@@H](O)[C@H](Cc2ccccc2)NC(=O)[C@H](CS(C)(=O)=O)NC(=O)COc2cccc3ccccc23)C1		IC50			Protease	HIV-1		>0.05 µM
O=C(Nc1cn2ccn(Cc3cccc(Cl)c3)c(=O)c2c(O)c1=O)c1ccccc1		IC50		ELISA	Integrase	HIV-1		<0.01 µM
Nc1nc2c(ncn2[C@H]2CC[C@@H](COP(=O)(O)OP(=O)(O)NP(=O)(O)OP(=O)(O)OC[C@H]3O[C@@H](n4cnc5c(N)ncnc54)[C@H](O)[C@@H]3O)O2)c(=O)[nH]1		fold resistance	RT-D67N K70R T215Y K219Q	nucleotide incorporation / radiometric	Reverse transcriptase	HIV		<0.56
COC(=O)[C@]1(O)C[C@@H](O)[C@@H](O)[C@H](OC(=O)/C=C/c2ccc(O)c(O)c2)C1		IC50		FRET	RNase H	HIV-2		>20 µM
Cc1ccc(Cl)cc1Nc1nc(C(F)(F)F)ccc1C(=O)NN1CCN(c2cccc(Cl)c2)CC1		fold resistance	A502F	RNase H / absorbance	RNase H	HIV-1		2.6
C[C@@H](O)[C@H](NC(=O)[C@H](CC(=O)O)NC(=O)[C@H](Cc1c[nH]c2ccccc12)NC(=O)[C@@H]1CCCN1C(=O)[C@H](Cc1c[nH]c2ccccc12)NC(=O)[C@@H](N)CO)C(=O)N[C@@H](Cc1c[nH]c2ccccc12)C(=O)O	HXB2	IC50		ELISA	gp120	HIV-1		>130 µM
CC[C@H](C)[C@H](NC(=O)[C@@H]1CCCN1C[C@H](Cc1ccccc1)NC(=O)[C@H](CC(N)=O)NC(=O)[C@H](CCC(N)=O)NC(=O)[C@H](CO)NC(=O)[C@@H](N)C(C)C)C(=O)N[C@H](C(=O)O)C(C)C		Ki			Protease	HIV-2		26.1 µM
COc1ccnc2[nH]cc(C(=O)C(=O)N3CCN(C(=O)c4ccccc4)C[C@H]3C)c12	NL4-3	fold resistance	GP120-M475I	ELISA	gp120	HIV-1		>97
OC[C@H]1O[C@@H](OCCc2ccc(O)cc2)[C@H](O)[C@@H](O)[C@@H]1O		IC50		FRET	RNase H	HIV-2		>20 µM
CC[C@H](C)[C@H](NC(=O)[C@@H](C[C@H](O)[C@H](CC1CCCCC1)NC(=O)CC(C)(C)C)C(C)C)C(=O)NCc1ccccn1		Ki			Protease	HIV-2		1 µM
CC[C@H](C)[C@H](N)C(=O)N[C@@H](CC(N)=O)C(=O)N[C@@H](CC(N)=O)C(=O)N[C@H](C(=O)N1CCC[C@H]1C(=O)N[C@@H](Cc1c[nH]c2ccccc12)C(=O)N[C@@H](CO)C(=O)O)[C@@H](C)CC	HXB2	IC50		ELISA	gp120	HIV-1		610 µM
Cn1ccc(CN2CCn3c(nc(C(=O)NCc4ccc(F)cc4)c(O)c3=O)C23CCOCC3)n1		IC50		ELISA	Integrase	HIV-1		<10 µM
CC(C)(O)[C@H]1CC[C@@](C)(O[C@H]2O[C@@H](CO)[C@H](O)[C@@H](O)[C@@H]2O)[C@H](O)C1		IC50		FRET	RNase H	HIV-2		>20 µM
Nc1ccn([C@H]2CC[C@@H](COP(=O)(O)OP(=O)(O)OP(=O)(O)OP(=O)(O)OC[C@@H]3CC[C@H](n4ccc(N)nc4=O)O3)O2)c(=O)n1		fold resistance	RT-K65R	nucleotide incorporation / radiometric	Reverse transcriptase	HIV		5.26

Again, the opening 6 rows:

SMILES | strain | measure | mutations | read by | protein | agent | dose | value
CC1(C)c2nc(C(=O)NCc3ccc(F)cc3)c(O)c(=O)n2CCN1Cc1cnccn1 |  | IC50 |  | ELISA | Integrase | HIV-1 |  | <10 µM
Cc1cn([C@H]2CC[C@@H](COP(=O)(O)OP(=O)(O)OP(=O)(O)O)O2)c(=O)[nH]c1=O |  | IC50 | RT-M41L T215Y | nucleotide incorporation / radiometric | Reverse transcriptase | HIV |  | 0.13 µM
CC(C)=CCN1Cc2cccc3[nH]c(=S)n(c23)C[C@@H]1C |  | fold resistance | RT-Y271S | nucleotide incorporation | Reverse transcriptase | HIV |  | >200
CCOC(=O)C(=O)CC(=O)/C=C/c1cc(-c2ccccc2)cn1Cc1ccc(F)cc1 |  | IC50 | R448A | substrate cleavage / fluorescence | RNase H | HIV-1 |  | 100 µM
COC(=O)c1ccc(C(=O)NCc2cccc(C(F)(F)F)c2)c(O)c1O |  | IC50 |  | strand transfer | Integrase | HIV |  | <0.5 µM
Nc1ncnc2c1ccn2[C@H]1C[C@H](F)[C@@H](COP(=O)(O)OP(=O)(O)OP(=O)(O)O)O1 |  | fold resistance | RT-K65R | nucleotide incorporation / radiometric | Reverse transcriptase | HIV |  | 5.36